Results deposited as PubChem BioAssay AID1259414 (Drosophila RNAi Screening Center, 2018)

Aim: 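Host factors increasing or decreasing Wolbachia levels in cultured fly cells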 (primary screen)
Cell system: Drosophila JW18 cells infected with Wolbachia
Reagents: long dsRNA against Drosophila genes, 0.25 µg dsRNA per well of a 384-well plate
Duration: 5 days
Treatment: cells persistently infected with Wolbachia before knock-down; no added drug
Read-out: 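Imaged fluorescence in situ signal for Wolbachia 23S rRNA per DAPI-counted host cell, given as a robust z-score within each plate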
Reading the numbers: Wolbachia per cell robust z: higher = more Wolbachia per host cell than the plate typical
Rule for the call: 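Hit when robust z is 1.5 or more, or -1.5 or less, in at least two of three replicates; excludes dsRNAs with several or no targets, genes not expressed in JW18 and well A1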
The deposit covers about 24,000 reagents; below is a random part of those with a known target gene and a result. In the full data, about 1,210 (5%) got an active call. 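Inactive calls also include excluded dsRNAs with several or no targets, genes unexpressed in JW18, and well A1, regardless of score.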 Entries without a mark were called inactive. Reagents against one gene are numbered here. A plus sign joins genes that one reagent is predicted to hit.

The opening 5 entries as a preview:
no.	gene knocked down	reagent	Wolbachia per cell robust z, rep 1	Wolbachia per cell robust z, rep 2	Wolbachia per cell robust z, rep 3
1	CG10194	1	-0.836	0.438	0.987
2	CG15043	1	-0.205	-0.233	0.547
3	CG15043	2	1.1	0.902	0.804
4	Prtl99C	1	0.468	1.09	1
5	CG7294	1	0.0409	-4.28	-0.285

The list itself, from the start:
no.	gene knocked down	reagent	Wolbachia per cell robust z, rep 1	Wolbachia per cell robust z, rep 2	Wolbachia per cell robust z, rep 3
1	CG10194	1	-0.836	0.438	0.987
2	CG15043	1	-0.205	-0.233	0.547
3	CG15043	2	1.1	0.902	0.804
4	Prtl99C	1	0.468	1.09	1
5	CG7294	1	0.0409	-4.28	-0.285
6	CG7294	2	-11.4	-8.1	-1.81
7	CG13516	1	-3.48	1.45	0.693
8	CG42692	1	0.167	0.576	1.2
9	CG13058	1	-0.827	0.342	0.271
10	CG13058	2	2.45	0.914	1.37
11	gro	1	-4.25	1.36	-0.245
12	gro	2	-0.24	0.149	-0.291
13	Cyp9h1	1	0.867	0.83	0.472
14	Cyp9h1	2	-0.909	-0.589	1.5
15	CG9135	1	-0.724	-0.117	-2.29
16	Ubqn	1	-3.9	1.81	-0.193
17	Ubqn	2	0.968	1.11	0.299
18	Herc4	1	-0.199	-2.29	-0.555
19	CG4000	1	-1.45	1.01	0.659
20	CG4000	2	0.358	-0.178	-0.0434
21	CG4000	3	-0.0235	1.05	0.0893
22	Gpat4	1	-0.84	-1.41	-0.622
23	CG6865	1	-2.13	-1.13	0.161
24	CG12935	1	1.01	0.162	-0.506
25	Twdlbeta	1	0.393	0.613	0.513
26	Twdlbeta	2	0.764	2.47	2.07
27	CG7692	1	-0.994	0.487	0.207
28	CG7692	2	-0.388	-2.77	-1.31
29	Rab39	1	-5.11	0.608	-0.85
30	cry	1	0.756	-0.526	1.89
31	cry	2	-1.74	-1	-0.783
32	rau	1	0.375	-0.65	-1.16
33	rau	2	-0.0104	-0.58	-0.663
34	Ugt37A1	1	0.193	0.145	-0.556
35	d-cup	1	0.56	-0.00999	-0.0121
36	ZnT49B	1	-0.524	0.434	-0.0443
37	CG4259	1	0.468	-0.575	-0.344
38	CG4259	2	-0.594	0.186	-1.63
39	CG14606	1	1.04	-1.48	0.857
40	CG43373	1	1.26	0.281	-0.078
41	CG43373	2	0.0703	0.0443	0.5
42	CG43373	3	-1.23	-2.33	-0.00643
43	CG2519	1	-1.86	0.388	0.473
44	CG34008	1	1.16	0.218	-0.109
45	l(1)G0196	1	-6.38 (active)	-1.75	-7.22
46	l(1)G0196	2	-2.25	0.484	-0.138
47	Rpn12	1	1.8 (active)	2.07	0.00454
48	Rpn12	2	1.49 (active)	2.45	2.22
49	Bili + CR41504	1	0.132	-0.000668	0.32
50	CG6688	1	0.963	-1.43	1.06
51	CG6688	2	-0.158	-0.885	-0.726
52	inaF-B	1	-0.676	-0.7	-0.899
53	CG31626 + CG8677	1	-0.238	-0.309	-0.207
54	Pglym78	1	-0.545	0.0728	1.46
55	Pglym78	2	1.2	0.427	1.35
56	CG32195	1	-1.42	-1.14	-1.67
57	Mst84Dc	1	-0.00853	0.417	-5.95
58	CG11698	1	-1.56	0.205	-1.12
59	endos	1	-0.838	-0.0898	-6.95
60	endos	2	0.375	0.979	0.91
61	opa	1	1.09	-2.45	-0.917
62	opa	2	0.743	1.61	0.507
63	opa	3	1.51	0.0729	-0.522
64	eEF1beta	1	0.248	-2	1.23
65	eEF1beta	2	-0.793	-3.59	1.83
66	p24-2 + Unc-115b + Unc-115a	1	-1.27	-1.06	-0.392
67	Sfxn2	1	0.0243 (active)	-2.09	-2.05
68	Tret1-2	1	0.42	0.75	0.334
69	Tret1-2	2	0.0234	-0.552	0.649
